Experimental data: PubChem BioAssay AID504761 (Drosophila RNAi Screening Center, 2011)
The screen tested about 22,000 reagents; below is a random part of those that have a named target and a result. In the full data, 116 (0.52%) were called active. 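Calls depend on retest data that are not deposited; infection was ranked per plate without normalising between plates; the unit of the infection score is not given.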 Raw values are not corrected between plates. Unmarked entries are inactive. A plus sign joins genes that one reagent is predicted to hit. Not stated in the record: the amount of reagent, the time to read-out.

- Test: 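Genome-wide fly cell screen for genes dengue virus requires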 (primary screen)
- System: D.Mel-2 cells from Drosophila
- Knock-down reagent: long dsRNA against Drosophila genes
- Challenge: infection with dengue virus type 2; dose and infection time not stated
- Detection: 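Per well on two replicate plates, imaging gave the percent of cells positive for viral envelope protein, ranked by infection, and a nuclear count of cells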
- Reading the numbers: infection score: higher = more virus-infected cells; cell count: higher = more cells in the well
- Call rule: 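Low infection ranks in the two replicates (chance level up to 0.065) followed by a retest with a 1.5-fold or larger significant decrease, p below 0.05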
- Meaning of the calls: active = confirmed: knock-down lowers infection; inactive = not picked or not confirmed

| Target gene | dsRNA | infection score, replicate 1 | infection score, replicate 2 | cell count, replicate 1 | cell count, replicate 2 |
| --- | --- | --- | --- | --- | --- |
| CG13855 | DRSC14705 | 12.9 | 13.1 | 5472 | 5734 |
| CG13855 | DRSC26677 | 7.05 | 4.34 | 6255 | 5897 |
| CG13385 | DRSC02259 | 4.42 | 1.4 | 6408 | 6082 |
| CG14085 | DRSC10089 | 1.55 | 1.37 | 5990 | 6328 |
| CG13589 | DRSC04225 | 3.84 | 9.65 | 6098 | 6662 |
| CG13589 | DRSC26885 | 8.63 | 20.9 | 6395 | 6452 |
| GABA-B-R3 | DRSC00561 | 12.4 | 5.19 | 6586 | 6651 |
| GABA-B-R3 | DRSC29404 | – | – | 274 | 431 |
| mus301 | DRSC10939 | 1.3 | 1.8 | 5921 | 5873 |

Next part (3 carried over from the part before).
| Target gene | dsRNA | infection score, replicate 1 | infection score, replicate 2 | cell count, replicate 1 | cell count, replicate 2 |
| --- | --- | --- | --- | --- | --- |
| GABA-B-R3 | DRSC00561 | 12.4 | 5.19 | 6586 | 6651 |
| GABA-B-R3 | DRSC29404 | – | – | 274 | 431 |
| mus301 | DRSC10939 | 1.3 | 1.8 | 5921 | 5873 |
| CG3652 | DRSC00624 | 8.84 | 2.69 | 6406 | 6658 |
| CG3918 | DRSC23159 | 3.1 | 16 | 6580 | 2719 |
| CG3918 | DRSC28834 | 23.4 | 21.3 | 5177 | 4166 |
| CG9664 | DRSC00725 | 3.44 | 5.2 | 6134 | 6962 |
| rha | DRSC17044 | 14.2 | 10.4 | 5944 | 6487 |
| beat-IIIb | DRSC02435 | 1.28 | 6.32 | 7013 | 6279 |
| Reps | DRSC02940 | 5.74 | 7.31 | 5875 | 6047 |
| mus201 + Chrac-14 | DRSC03568 | 5.11 | – | 6366 | 484 |
| mus201 + Chrac-14 | DRSC03575 | 23.7 | 2.23 | 4848 | 6183 |
| Ipo9 | DRSC16813 | 3.89 | 6.74 | 6455 | 6443 |
| Adgf-D | DRSC16521 | 2.66 | 12.4 | 6350 | 6356 |
| caps | DRSC11333 | 1.35 | 2.52 | 5937 | 6583 |
| caps | DRSC22224 | 4.11 | 7.46 | 6501 | 6956 |
| CG15040 | DRSC19616 | 27.4 | 10.4 | 4258 | 6239 |
| CG15040 | DRSC21482 | 2.53 | 4.56 | 6633 | 6981 |
| CG15040 | DRSC29466 | – | 14.4 | 357 | 5624 |
